Assay results as given in article PMC4998957 (Nature, 2016).

Molecular target: CAHexamer (disulfide-stabilised HIV-1 capsid hexamer) (Human immunodeficiency virus type 1 group M subtype B, UniProt P12493, A146C/E177C/M317A/W316A)
Type: binding
Settings: read-out: affinity (Kd) for CAHexamer; pH 7.2

Substance: BODIPY-labelled GTP-γ-S [reference compound]
- Kd: 14 nM
